Measurements as given in PubChem BioAssay AID704 (The Scripps Research Institute Molecular Screening Center, 2007).
The entries are a selection whose mix differs from that of the whole data set. Active and inactive are the calls of the source.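 Rule for the calls: active = inhibition above the screen-wide mean plus 3 SD (cut at about 35% in these data); inactive = the rest.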

The chains behind the UniProt entries cited, without tags or fusion partners.
UniProt P05866, whole entry: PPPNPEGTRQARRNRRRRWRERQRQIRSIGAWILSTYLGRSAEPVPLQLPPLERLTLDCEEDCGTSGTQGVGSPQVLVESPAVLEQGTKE

Molecular target: Protein Rev (Human immunodeficiency virus type 1 group M subtype B (isolate WMJ22)) (UniProt P05866)
Experiment: HIV-1 Rev-RRE binding inhibitors, primary screen, biochemical, FRET, protein-RNA interaction (AID 704);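 note: 0% = median DMSO wells and 100% = median Neomycin B control wells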
Details: Rev peptide-RRE RNA binding, at 8 µM, hits give high values
How it was run: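 System: Cy5-labelled duplex RRE RNA binding fluorescein-labelled HIV Rev peptide; Signal: fluorescein-to-Cy5 FRET, 480 nm excitation; Also added: labelled Rev peptide; Compound: one concentration, 8 µM nominal; Buffer or medium: HEPES pH 7.5 salt buffer with EDTA; Read-out: % inhibition of FRET ratio versus controls; Schedule: 5 min preincubation and 15 min binding, 25 °C.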

`CC(C)(C)c1ccc(OP(C)(=O)O)cc1` was tested. Which inhibition did it give?
Its inhibition is inactive: 4.66%.

With `CP(=O)(Nc1ccc(Cl)cc1)Oc1ccc(F)cc1` (stereo not given) as the molecule, how does the inhibition read?
The inhibition was inactive: 1%.

`COc1ccccc1OP(C)(=O)Nc1c(C)n(C)n(-c2ccccc2)c1=O` (stereo not given) was tested. Which inhibition did it give?
The inhibition was inactive: 3.38%.

How did the inhibition turn out when `CP(=O)(Oc1ccccc1)N1CCOC1=O` (stereo not given) was run?
Its inhibition is inactive: -2.24%.

With `CCN(CC)CC(O)COC(=O)C(O)(c1ccccc1)C1CCCCC1` (stereo not given) as the molecule, how does the inhibition read?
Its inhibition is inactive: -5.53%.

For `CP(=O)(OC12CC3CC(CC(C3)C1)C2)OC12CC3CC(CC(C3)C1)C2`, which inhibition is on record?
Its inhibition is inactive: -1.28%.

Which inhibition does the source give for `Cc1nc2ccc3ccccc3c2o1.O=[N+]([O-])c1cc([N+](=O)[O-])c(O)c([N+](=O)[O-])c1` here?
Its inhibition is inactive: 11%.

For `COc1ccccc1OP(C)(=O)Nc1ccc(C)c(C)c1` (stereo not given), which inhibition is on record?
The inhibition was inactive: 0.89%.

`COc1ccccc1OP(C)(=O)Nc1ccc(C)cc1C` (stereo not given) was tested. Which inhibition did it give?
Its inhibition is inactive: -5.7%.

How did the inhibition turn out when `CP(=O)(Nc1ccccn1)Oc1ccccc1` (stereo not given) was run?
Its inhibition is inactive: 8.92%.

With `CCc1ccc(OP(C)(=O)O)cc1` as the molecule, how does the inhibition read?
Its inhibition is inactive: 3.28%.

`Cc1c(NP(C)(=O)Oc2ccc(C(C)C)cc2)c(=O)n(-c2ccccc2)n1C` (stereo not given) was tested. Which inhibition did it give?
Its inhibition is inactive: 0.24%.

`COc1ccc(OP(C)(=O)Nc2ccccn2)cc1` (stereo not given) was tested. Which inhibition did it give?
The inhibition was inactive: 5%.

`CN(C)CCOC(=O)C(O)(c1ccccc1)C1CCCC1` (stereo not given) was tested. Which inhibition did it give?
Its inhibition is inactive: 0.28%.

With `CP(=O)(Nc1ccccc1F)Oc1ccccc1` (stereo not given) as the molecule, how does the inhibition read?
The inhibition was inactive: 0.76%.

Which inhibition does the source give for `CP(=O)(Nc1ccccc1)Oc1ccc(F)cc1` (stereo not given) here?
The inhibition was inactive: 7.26%.

For `CCN(CC)CCCOC(=O)C(O)(c1ccccc1)C1CCCCC1` (stereo not given), which inhibition is on record?
The inhibition was inactive: -3.75%.

For `CN(C)CCOC(=O)C(O)(c1ccccc1)C1CCCCC1` (stereo not given), which inhibition is on record?
The inhibition was inactive: -5.45%.

With `COc1ccc(OP(C)(=O)Nc2cccc(Br)c2)cc1` (stereo not given) as the molecule, how does the inhibition read?
Its inhibition is inactive: 5.4%.

Which inhibition does the source give for `CP(=O)(Nc1ccc2c(c1)OCCO2)Oc1ccccc1` (stereo not given) here?
Its inhibition is inactive: 3.35%.

`CCOP(C)(=S)SCC(=O)NC(C)(CC)C(=O)O` (stereo not given) was tested. Which inhibition did it give?
The inhibition was inactive: 0.86%.

For `Cc1nc2ccc3ccccc3c2s1.O=[N+]([O-])c1cc([N+](=O)[O-])c(O)c([N+](=O)[O-])c1`, which inhibition is on record?
The inhibition was inactive: 8.76%.

With `COc1ccccc1OP(C)(=O)Nc1c(C)cccc1C` (stereo not given) as the molecule, how does the inhibition read?
The inhibition was inactive: -1.73%.

How did the inhibition turn out when `Cc1ccc(C)c(NP(C)(=O)Oc2ccccc2)c1` (stereo not given) was run?
Its inhibition is inactive: -2.85%.

Which inhibition does the source give for `Cc1cc(C)cc(OP(C)(=O)Nc2ccccn2)c1` (stereo not given) here?
Its inhibition is inactive: 3.56%.

With `Cc1cc(C)cc(OP(C)(=O)Nc2ccc(C)cc2C)c1` (stereo not given) as the molecule, how does the inhibition read?
Its inhibition is inactive: 0.96%.

Which inhibition does the source give for `COc1ccc(OP(C)(=O)Nc2cccc(F)c2)cc1` (stereo not given) here?
The inhibition was inactive: 1.79%.

With `CP(=S)(Nn1cnnc1)Oc1ccccc1` (stereo not given) as the molecule, how does the inhibition read?
Its inhibition is inactive: 3.49%.

Which inhibition does the source give for `CP(=O)(Nc1ccccn1)Oc1ccc(Cl)cc1` (stereo not given) here?
Its inhibition is inactive: -0.57%.

How did the inhibition turn out when `CP(=O)(NC(=O)Nc1ccccc1)Oc1ccccc1` (stereo not given) was run?
The inhibition was inactive: 3.25%.
